IC50 data for two molecules are collected here from patent publication US6759409B2, “Inhibitors of papilloma virus” (Boehringer Ingelheim (Canada) Ltd., priority 2000, dated 2004).

Chains of the proteins cited; added tags and fusions are not shown.
UniProt P04015, whole entry: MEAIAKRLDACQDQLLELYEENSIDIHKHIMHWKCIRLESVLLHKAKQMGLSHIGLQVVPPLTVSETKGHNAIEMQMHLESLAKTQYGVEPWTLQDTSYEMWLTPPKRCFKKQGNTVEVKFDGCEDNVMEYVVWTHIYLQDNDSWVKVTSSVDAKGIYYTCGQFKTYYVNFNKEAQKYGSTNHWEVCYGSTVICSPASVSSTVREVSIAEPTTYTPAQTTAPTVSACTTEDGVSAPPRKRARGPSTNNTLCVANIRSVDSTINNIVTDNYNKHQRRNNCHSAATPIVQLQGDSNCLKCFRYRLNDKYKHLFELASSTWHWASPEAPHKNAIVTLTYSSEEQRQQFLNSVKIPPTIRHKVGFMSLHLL

The target of the assay is HPV-11 E1-E2-DNA origin of replication complex (Human papillomavirus 11, UniProt P04015). As to the kind of experiment: E2-dependent E1 DNA binding assay (E1-E2 DNA assay). The settings on record: tested form: Na salt. On the procedure:
This particular assay determines the ability of a test compound to inhibit the activity (IC50) of HPV-11 DNA replication. More specifically, in the assay described herein, the inhibitory activity of the test compound is evaluated based on its ability to interfere with the E1-E2-DNA origin of replication interaction, thereby inhibiting initiation of viral DNA replication.
This assay was modeled on a similar assay for SV40 T Antigen described by McKay (J. Mol. Biol., 1981,145:471). A 400 bp radiolabeled DNA probe, containing the HPV-11 origin of replication (Chiang et al., 1992, Proc. Natl. Acad. Sci. USA 89:5799) was produced by pcr, using plasmid pBluescript™ SK encoding the origin (nucleotides 7886-61 of the HPV-11 genome in unique BAMH1 site) as template and primers flanking the origin. Radiolabel was incorporated as [^33P]dCTP. Binding assay buffer consisted of: 20 mM Tris pH 7.6, 100 mM NaCl, 1 mM DTT, 1 mM EDTA.
Other reagents used were protein A-SPA beads (type II, Amersham) and K72 rabbit polyclonal antiserum, raised against a peptide corresponding to the C-terminal 14 amino acids of HPV-11 E1. […] After an additional hour of incubation at room temperature, the reactions were centrifuged briefly to pellet the beads and the extent of complex formation was determined by scintillation counting on a Packard TopCount™. […]

Structures are written as SMILES.

`O=C(Nc1ccc2c(c1)OCO2)C1C(c2ccc(Cl)c(Cl)c2)OC2(C(=O)c3ccccc3C2O)C1C(=O)O` (centres unmarked): the IC50 (Table 8, racemic cis/cis isomer (form 2)) is 0.5 to 5 µM.

For the molecule `CC(=O)c1ccc(NC(=O)C2C(c3ccc(Cl)c(Cl)c3)OC3(C(=O)c4ccc(Br)cc4C3=O)C2C(=O)O)cc1` (centres unmarked), for the setting “Table 1, racemic cis/cis isomer (form 1)”, the IC50 is 5 to 50 µM.
